From publication PMC3179954, “A bacterial PriB with weak single-stranded DNA binding activity can stimulate the DNA unwinding activity of its cognate PriA helicase” (BMC Microbiology, 2011)
Construct, isoform or probe ends are uncertain for at least one entry. Protein sequences can lack the tags named with them.

Legend:
[1] = biological target: T1, PriA helicase (Neisseria gonorrhoeae) (UniProt Q5F6V8); experiment: fluorescence polarization; settings: 20 mM Tris-HCl pH 8, 10% glycerol, 50 mM NaCl, 1 mM 2-mercaptoethanol, 0.1 mg/ml BSA, 1 nM fluorescein-labeled DNA, 25 C; recombinant protein; label: 3' fluorescein on S5 (nascent lagging strand); letters put together from the description
T1 sequence (looked up, limits assumed): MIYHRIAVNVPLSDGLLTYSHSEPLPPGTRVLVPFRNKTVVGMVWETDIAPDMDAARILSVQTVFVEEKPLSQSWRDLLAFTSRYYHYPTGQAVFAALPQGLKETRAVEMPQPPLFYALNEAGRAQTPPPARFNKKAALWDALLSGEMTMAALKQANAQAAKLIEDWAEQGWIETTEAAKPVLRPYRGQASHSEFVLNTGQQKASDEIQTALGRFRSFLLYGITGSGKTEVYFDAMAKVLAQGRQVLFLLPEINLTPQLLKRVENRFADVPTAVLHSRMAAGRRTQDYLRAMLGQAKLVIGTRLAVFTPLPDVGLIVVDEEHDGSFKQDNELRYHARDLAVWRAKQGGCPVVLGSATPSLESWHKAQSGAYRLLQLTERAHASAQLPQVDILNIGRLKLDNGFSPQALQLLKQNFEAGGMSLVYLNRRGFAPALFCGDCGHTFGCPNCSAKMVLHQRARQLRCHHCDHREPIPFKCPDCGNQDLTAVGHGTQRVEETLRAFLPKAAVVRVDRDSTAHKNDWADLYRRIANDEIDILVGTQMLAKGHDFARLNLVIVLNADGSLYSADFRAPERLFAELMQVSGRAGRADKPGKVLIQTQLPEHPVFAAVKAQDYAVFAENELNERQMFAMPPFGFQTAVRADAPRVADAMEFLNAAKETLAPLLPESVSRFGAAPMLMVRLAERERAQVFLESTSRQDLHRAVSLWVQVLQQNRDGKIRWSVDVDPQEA

[2] = biological target: T2, PriB (Neisseria gonorrhoeae) (UniProt Q5F924); experiment: fluorescence polarization; settings: 20 mM Tris-HCl pH 8, 10% glycerol, 50 mM NaCl, 1 mM 2-mercaptoethanol, 0.1 mg/ml BSA, 1 nM fluorescein-labeled DNA, 25 C; recombinant protein; label: 3' fluorescein on S5 (nascent lagging strand); letters put together from the description
T2 sequence (looked up, limits assumed): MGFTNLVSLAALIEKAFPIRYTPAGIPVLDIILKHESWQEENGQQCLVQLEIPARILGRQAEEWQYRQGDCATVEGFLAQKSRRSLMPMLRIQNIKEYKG

In the case of “GTCGGATCCTCTAGACAGCTCCATGATCACTGGCACTGGTAGAATTCGGC / GCCGAATTCTACCAGTGCCAGTGAT / AACGTCATAGACGATTACATTGCTACATGGAGCTGTCTAGAGGATCCGAC / TAGCAATGTAATCGTCTATGACGTT [Fork 2]”, the Kd [1] is reported as 134 nM and the Kd [2] is reported as 690 nM.
